Compound potency records, mixed from different reports. Data source: NIAID ChemDB in PubChem.

Common to all: whole-cell or culture tests; species: Mycobacterium avium

Blank or dashed fields: not listed here. Rows are shuffled and stem from different studies. MIC50, MIC90 and the like: level of inhibition, or share of isolates inhibited. ECn: concentration that inhibits the pathogen or its effect by n%.

structure	strain or isolate	read by	conditions	measure	result
CC(C)N=c1cc2n(-c3ccc(Cl)cc3)c3ccccc3nc-2cc1Nc1ccc(Cl)cc1	453-C clarithromycin-resistant			MIC	0.06 µg/mL
CCn1cc(C(=O)O)c(=O)c2cc(F)c(N3CCN(C)CC3)cc21	13 strains			MIC50	>32 µg/mL
CC[C@@H](CO)NCCN[C@@H](CC)CO	9 isolates (HIV+)			MIC50	>16 µg/mL
CC[C@H]1OC(=O)[C@H](C)[C@@H](O[C@H]2C[C@@](C)(OC)[C@@H](O)[C@H](C)O2)[C@H](C)[C@@H](O[C@@H]2O[C@H](C)C[C@H](N(C)C)[C@H]2O)[C@](C)(OC)C[C@@H](C)C(=O)[C@H](C)[C@@H](O)[C@]1(C)O	1854	broth dilution / radiometric	pH 7.4	MIC	0.5 µg/mL
CC(=O)O[C@H]1C[C@@]2(C)[C@@H](C[C@@H](O)[C@H]3[C@@]4(C)CC[C@@H](O)[C@@H](C)[C@@H]4CC[C@@]32C)/C1=C(\CCC=C(C)C)C(=O)O	ATCC 25291			Mean MIC	>24 µg/mL
CO[C@H]1/C=C/O[C@@]2(C)Oc3c(C)c(O)c4c(O)c(c(N5CCN(Cc6c(C)cc(C)cc6C)CC5)c(O)c4c3C2=O)NC(=O)/C(C)=C\C=C\[C@H](C)[C@H](O)[C@@H](C)[C@@H](O)[C@@H](C)[C@H](OC(C)=O)[C@@H]1C	50 strains			MIC50	0.06 µg/mL
Cc1cc(NS(=O)(=O)c2ccc(NC(=O)Nc3ccc(S(=O)(=O)Nc4cc(C)on4)cc3)cc2)no1	330/88	broth dilution / absorbance	21 d	MIC100	62.5 µM
CO[C@H]1/C=C/O[C@@]2(C)Oc3c(C)c(O)c4c(O)c(c5c(c4c3C2=O)NC2(CCN(CC(C)C)CC2)N=5)=NC(=O)/C(C)=C\C=C\[C@H](C)[C@H](O)[C@@H](C)[C@@H](O)[C@@H](C)[C@H](OC(C)=O)[C@@H]1C	9 isolates (HIV+)			MIC50	1 µg/mL
C[C@H]1COc2c(N3C[C@@H]4CCCN[C@@H]4C3)c(F)cc3c(=O)c(C(=O)O)cn1c23	4 strains			Mean MIC	0.7 µg/mL
CCCCCCNC(=O)Nc1ccc(S(=O)(=O)Nc2cc(C)on2)cc1	330/88	broth dilution / absorbance	14 d	MIC100	250 µM
CN[C@@H]1[C@H](O[C@H]2[C@H](O[C@H]3[C@H](O)[C@@H](O)[C@H](N=C(N)N)[C@@H](O)[C@@H]3N=C(N)N)O[C@@H](C)[C@]2(O)C=O)O[C@@H](CO)[C@H](O)[C@H]1O	3090			MIC	8 µg/mL
COc1c(N2CCNC(C)C2)c(F)cc2c(=O)c(C(=O)O)cn(C3CC3)c12	N-444	broth dilution		MBC	4 µg/mL
CNC(=O)Nc1ccc(S(=O)(=O)Nc2cc(C)on2)cc1	330/88	broth dilution / absorbance	14 d	MIC100	62.5 µM
C[C@H]1COc2c(N3CC(C)(CN)C3)c(F)cc3c(=O)c(C(=O)O)cn1c23	4 strains			Mean MIC	50 µg/mL
CCc1cc(C(N)=S)ccn1	ATCC 25291			Median MIC	>2.8 µg/mL
C[C@H]1COc2c(N3CC[C@H](N(C)C)C3)c(F)cc3c(=O)c(C(=O)O)cn1c23	4 strains			Mean MIC	9 µg/mL
Cc1cc(NS(=O)(=O)c2ccc(NC(=O)N3CCC3)cc2)no1	330/88	broth dilution / absorbance	21 d	MIC100	125 µM
Nc1ccc(C(=O)O)c(O)c1	ATCC 25291			Median MIC	16 µg/mL
NNC(=O)c1ccncc1	4 strains			Mean MIC	4.7 µg/mL
CO[C@H]1/C=C/O[C@@]2(C)Oc3c(C)c(O)c4c(O)c(c5c(c4c3C2=O)NC2(CCN(CC(C)C)CC2)N=5)=NC(=O)/C(C)=C\C=C\[C@H](C)[C@H](O)[C@@H](C)[C@@H](O)[C@@H](C)[C@H](OC(C)=O)[C@@H]1C	Isolate 90-1110			MIC	>1 µg/mL
CC[C@H]1OC(=O)[C@H](C)[C@@H](O[C@H]2C[C@@](C)(OC)[C@@H](O)[C@H](C)O2)[C@H](C)[C@@H](O[C@@H]2O[C@H](C)C[C@H](N(C)C)[C@H]2O)[C@](C)(OC)C[C@@H](C)C(=O)[C@H](C)[C@@H](O)[C@]1(C)O	N-444	broth dilution		MBC	32 µg/mL
CC[C@@H](CO)NCCN[C@@H](CC)CO	Reference strains			MIC90	16 µg/mL
CC(C)N=c1cc2n(-c3ccc(Cl)cc3)c3ccccc3nc-2cc1Nc1ccc(Cl)cc1	ATCC 25291			Mean MIC	0.38 µg/mL
NNC(=O)c1ccncc1	Clinical strains			MIC90	>16 µg/mL
CC[C@H]1OC(=O)[C@H](C)[C@@H](O[C@H]2C[C@@](C)(OC)[C@@H](O)[C@H](C)O2)[C@H](C)[C@@H](O[C@@H]2O[C@H](C)C[C@H](N(C)C)[C@H]2O)[C@](C)(O)C[C@@H](C)[C@@H]2N[C@@H](COCCOC)O[C@H]([C@H]2C)[C@]1(C)O	30 strains			Median MIC	16 µg/mL
CC[C@H]1OC(=O)[C@H](C)[C@@H](O[C@H]2C[C@@](C)(OC)[C@@H](O)[C@H](C)O2)[C@H](C)[C@@H](O[C@@H]2O[C@H](C)C[C@H](N(C)C)[C@H]2O)[C@](C)(OC)C[C@@H](C)C(=O)[C@H](C)[C@@H](O)[C@]1(C)O	ATCC 25291			Mean MIC	2 µg/mL
CC[C@H]1OC(=O)[C@H](C)[C@@H](O[C@H]2C[C@@](C)(OC)[C@@H](O)[C@H](C)O2)[C@H](C)[C@@H](O[C@@H]2O[C@H](C)C[C@H](N(C)C)[C@H]2O)[C@](C)(OC)C[C@@H](C)C(=O)[C@H](C)[C@@H](O)[C@]1(C)O	Reference strains			MIC90	16 µg/mL
CN[C@@H]1[C@@H](O)[C@@H](O[C@@H]2[C@@H](O)[C@H](O[C@H]3O[C@H](CN)CC[C@H]3N)[C@@H](N)C[C@H]2N)OC[C@]1(C)O	ATCC 25291			Median MIC	8 µg/mL
CCCCNC(=O)Nc1ccc(S(=O)(=O)Nc2cc(C)on2)cc1	330/88	broth dilution / absorbance	21 d	MIC100	1000 µM
CC[C@H]1OC(=O)[C@H](C)[C@@H](O[C@H]2C[C@@](C)(OC)[C@@H](O)[C@H](C)O2)[C@H](C)[C@@H](O[C@@H]2O[C@H](C)C[C@H](N(C)C)[C@H]2O)[C@](C)(O)C[C@@H](C)CN(C)[C@H](C)[C@@H](O)[C@]1(C)O	3090			MIC	8 µg/mL
CO[C@H]1/C=C/O[C@@]2(C)Oc3c(C)c(O)c4c(O)c(c5c(c4c3C2=O)NC2(CCN(CC(C)C)CC2)N=5)=NC(=O)/C(C)=C\C=C\[C@H](C)[C@H](O)[C@@H](C)[C@@H](O)[C@@H](C)[C@H](OC(C)=O)[C@@H]1C	Reference strains			MIC90	2 µg/mL
CO[C@H]1/C=C/O[C@@]2(C)Oc3c(C)c(O)c4c(=O)c(c5oc6cc(N7CCN(CC(C)C)CC7)cc(=O)c6nc5c4c3=C2O)NC(=O)/C(C)=C\C=C\[C@H](C)[C@H](O)[C@@H](C)[C@@H](O)[C@@H](C)[C@H](OC(C)=O)[C@@H]1C	3354			MBC	>0.125 µg/mL
CO[C@H]1/C=C/O[C@@]2(C)Oc3c(C)c(O)c4c(O)c(c5c(c4c3C2=O)NC2(CCN(CC(C)C)CC2)N=5)=NC(=O)/C(C)=C\C=C\[C@H](C)[C@H](O)[C@@H](C)[C@@H](O)[C@@H](C)[C@H](OC(C)=O)[C@@H]1C	ATCC 25291			Median MIC	0.5 µg/mL
CO[C@H]1/C=C/O[C@@]2(C)Oc3c(C)c(O)c4c(O)c(c(/C=N/N5CCN(C)CC5)c(O)c4c3C2=O)NC(=O)/C(C)=C\C=C\[C@H](C)[C@H](O)[C@@H](C)[C@@H](O)[C@@H](C)[C@H](OC(C)=O)[C@@H]1C	4 strains			Mean MIC	45.3 µg/mL
CN[C@@H]1[C@H](O[C@H]2[C@H](O[C@H]3[C@H](O)[C@@H](O)[C@H](N=C(N)N)[C@@H](O)[C@@H]3N=C(N)N)O[C@@H](C)[C@]2(O)C=O)O[C@@H](CO)[C@H](O)[C@H]1O	ATCC 25291			Median MIC	1.5 µg/mL
CCn1cc(C(=O)O)c(=O)c2cc(F)c(N3CCN(C)CC3)cc21			pH 6.8	EC50	<10 µg/mL
CC[C@H]1OC(=O)[C@H](C)[C@@H](O[C@H]2C[C@@](C)(OC)[C@@H](O)[C@H](C)O2)[C@H](C)[C@@H](O[C@@H]2O[C@H](C)C[C@H](N(C)C)[C@H]2O)[C@](C)(OC)C[C@@H](C)C(=O)[C@H](C)[C@@H](O)[C@]1(C)O	3011-C clarithromycin-resistant			MIC	128 µg/mL
NC[C@@H]1O[C@H](O[C@H]2[C@@H](O)[C@H](O[C@@H]3[C@@H](O)[C@H](N)C[C@H](N)[C@H]3O[C@H]3O[C@H](CO)[C@@H](O)[C@H](O)[C@H]3N)O[C@@H]2CO)[C@H](N)[C@@H](O)[C@@H]1O	ATCC 25291			Median MIC	6 µg/mL

A second listing of 3 rows from above:

structure,strain or isolate,read by,conditions,measure,result
CC[C@H]1OC(=O)[C@H](C)[C@@H](O[C@H]2C[C@@](C)(OC)[C@@H](O)[C@H](C)O2)[C@H](C)[C@@H](O[C@@H]2O[C@H](C)C[C@H](N(C)C)[C@H]2O)[C@](C)(OC)C[C@@H](C)C(=O)[C@H](C)[C@@H](O)[C@]1(C)O,N-444,broth dilution,,MBC,32 µg/mL
NC[C@@H]1O[C@H](O[C@H]2[C@@H](O)[C@H](O[C@@H]3[C@@H](O)[C@H](N)C[C@H](N)[C@H]3O[C@H]3O[C@H](CO)[C@@H](O)[C@H](O)[C@H]3N)O[C@@H]2CO)[C@H](N)[C@@H](O)[C@@H]1O,ATCC 25291,,,Median MIC,6 µg/mL
CO[C@H]1/C=C/O[C@@]2(C)Oc3c(C)c(O)c4c(O)c(c(/C=N/N5CCN(C)CC5)c(O)c4c3C2=O)NC(=O)/C(C)=C\C=C\[C@H](C)[C@H](O)[C@@H](C)[C@@H](O)[C@@H](C)[C@H](OC(C)=O)[C@@H]1C,4 strains,,,Mean MIC,45.3 µg/mL